Results of unrelated studies side by side (data: NIAID ChemDB).

Common to all: whole-cell or culture tests; species: HIV-1; measure: EC50

Two numbers with a dash give a range or band. Lines come from different laboratories, so protocols vary. An empty or dashed field is not shown. ECn is the concentration giving n% inhibition of infection, replication or growth.

compound,changes,read by,cell line,strain or isolate,value
Cc1ncc(-c2ccc(OCCOc3ccc(F)cc3Cl)cn2)c(N2CCC(C)(C)CC2)c1[C@H](OC(C)(C)C)C(=O)O,,luminescence,MT-2,NL4-3,0.0009 µM
Cc1cc(C#N)cc(C(=O)c2cc(Cl)ccc2OCC(=O)Nc2ccc(S(N)(=O)=O)cc2C)c1,RT-Y181C,cytopathic effect / propidium iodide,MT-4,Nevirapine-resistant (RT Y181C),<0.01 µM
CC(C)C1=C2[C@H]3CC[C@@H]4[C@@]5(C)CC[C@H](OC(=O)[C@H]6C[C@@H](C(=O)O)C6(C)C)C(C)(C)[C@@H]5CC[C@@]4(C)[C@]3(C)CC[C@@]2(CCNCC(C)(C)NC(=O)c2ccc(CN3CCOCC3)cc2)CC1=O,,p24 / ELISA,MT-2,92HT599,<1 µM
N#CC1=CC2Nc3ccccc3C2N(c2ccc([N+](=O)[O-])cc2)C1=O,,GFP / fluorescence,HeLa,7295-1,0.08 µM
Cc1ncc(-c2ccc(OC3CCOCC3)cn2)c(N2CCC(C)(C)CC2)c1[C@H](OC(C)(C)C)C(=O)O,,luminescence,MT-2,NL4-3,0.0159 µM
O=C(COc1ccc(Cl)cc1C(=O)c1ccco1)Nc1ccc2cn[nH]c2c1,RT-Y181C,cytopathic effect / propidium iodide,MT-4,Nevirapine-resistant (RT Y181C),0.011–0.1 µM
CC(C)C1=C2[C@H]3CC[C@@H]4[C@@]5(C)CC[C@H](OC(=O)[C@H]6C[C@@H](C(=O)O)C6(C)C)C(C)(C)[C@@H]5CC[C@@]4(C)[C@]3(C)CC[C@@]2(CC(=O)NCc2ccc(F)cc2)CC1=O,,p24 / ELISA,MT-2,92HT599,<1 µM
Cc1cc(C#N)cc(C(=O)c2cc(Cl)ccc2OCC(=O)Nc2ccc(OCCCN3CC=CC3)cc2C)c1,RT-V108I,β-galactosidase,HeLa + HELA CD4+,HXB2,<0.01 µM
Cc1cccc(C)c1OCCNc1ccc(-c2cnc(C)c([C@H](OC(C)(C)C)C(=O)O)c2N2CCC(C)(C)CC2)cn1,,luminescence,MT-2,NL4-3,0.0025 µM
Cc1cc(S(N)(=O)=O)ccc1NC(=O)COc1ccc(Cl)cc1C(=O)c1cc(F)cc(C#N)c1,RT-K103N G190A,β-galactosidase,HeLa + HELA CD4+,HXB2 (RT-K103N G190A) Recombinant,0.011–0.1 µM
Cc1ncc(-c2cnc(OCCC3CCCCC3)c(F)c2)c(N2CCC(C)(C)CC2)c1[C@H](OC(C)(C)C)C(=O)O,,luminescence,MT-2,NL4-3,0.0033 µM
Cc1cc(OCCCS(N)(=O)=O)ccc1NC(=O)COc1ccc(Cl)cc1C(=O)c1cc(F)cc(C(F)(F)F)c1,RT-P236L,β-galactosidase,HeLa + HELA CD4+,HXB2,<0.01 µM
CCC(=O)c1ccc(F)c([C@@H]2C[C@@H]2NC(=O)Nc2ccc(C#N)cn2)c1O,NNRTI-resistant (RT Y181C),β-galactosidase / luminescence,TZM-bl,LAI,0.0102 µM
CC(C)C1=C2[C@H]3CC[C@@H]4[C@@]5(C)CC[C@H](OC(=O)[C@H]6C[C@@H](C(=O)O)C6(C)C)C(C)(C)[C@@H]5CC[C@@]4(C)[C@]3(C)CC[C@@]2([C@@H](O)CNC(=O)c2ccc(F)cc2)CC1=O,,p24 / ELISA,MT-2,92HT599,<1 µM
CC1(C)CC=C(c2cn(-c3nccc(C(=O)NC4CCC(N5CC6CCC(C5)O6)CC4)n3)c3ccc(F)c([C@H](OC(C)(C)C)C(=O)O)c23)CC1,E92Q,luminescence,MT-4,NL4-3,0.0044 µM
Cc1ncc(-c2ccc(OCC3CCCCC3)cc2)c(N2CCC(C)(C)CC2)c1[C@H](OC(C)(C)C)C(=O)O,,luminescence,MT-2,NL4-3,0.0523 µM
CC(C)C1=C2[C@H]3CC[C@@H]4[C@@]5(C)CC[C@H](OC(=O)[C@H]6C[C@@H](C(=O)O)C6(C)C)C(C)(C)[C@@H]5CC[C@@]4(C)[C@]3(C)CC[C@@]2(CCNC[C@@H](N)C(C)C)CC1=O,,p24 / ELISA,MT-2,92HT599,<1 µM
Cc1ccc(C)n1-c1ccc(C(=O)O)c(O)c1,,luciferase / cell fusion,PBMC/5.25M7,BCF02 R5 GROUP O,3.94 µM
CCCc1cc(=O)oc2c3c(c4c(c12)OC(C)(C)CC4)O[C@@H](C)[C@H](C)[C@@H]3O,RT-T139I,XTT,CEM + CEM-SS,Calanolide A-resistant (RT T139I),>20 µM
Cc1cc(C#N)cc(C(=O)c2cc(Cl)ccc2OCC(=O)Nc2ccc(S(N)(=O)=O)nc2C)c1,,β-galactosidase,HeLa + HELA CD4+,WTRVA,<0.01 µM
C[C@H](Cn1cnc2c(N)ncnc21)OCP(=O)(O)O,M184V,recombinant virus assay,MT-2,Clinical isolate,0.0018 µM
Cc1ncc(-c2cnc(OCCOC(C)C)c(F)c2)c(N2CCC(C)(C)CC2)c1[C@H](OC(C)(C)C)C(=O)O,,luminescence,MT-2,NL4-3,0.0007 µM
CC(C)C1=C2[C@H]3CC[C@@H]4[C@@]5(C)CC[C@H](OC(=O)[C@H]6C[C@@H](C(=O)O)C6(C)C)C(C)(C)[C@@H]5CC[C@@]4(C)[C@]3(C)CC[C@@]2(CC(=O)NC(F)(F)c2ccccc2)CC1=O,,p24 / ELISA,MT-2,92HT599,<1 µM
Cc1ccc(OCCN(C)c2ccc(-c3cnc(C)c([C@H](OC(C)(C)C)C(=O)O)c3N3CCC(C)(C)CC3)cn2)cc1F,,luminescence,MT-2,NL4-3,0.005 µM
C#C[C@@]1(CO)C=C[C@H](n2cc(C)c(=O)[nH]c2=O)O1,M41L/A98G/K103N/M184V/L210W/T215Y,recombinant virus assay,MT-2,Clinical isolate,1.07 µM
Cc1nc2ccccc2c(-c2cc(F)c3c(c2C)CCCO3)c1[C@H](OC(C)(C)C)C(=O)O,V165I,luminescence,MT-4,NL4-3,0.024 µM
CC(C)CN(C[C@@H](O)[C@H](Cc1ccccc1)NC(=O)O[C@H]1CCOC1)S(=O)(=O)c1ccc(N)cc1,V32I L76V,reporter gene,MT-4,T13436,2037 nM
Cc1cc(S(N)(=O)=O)ccc1NC(=O)COc1ccc(Cl)cc1C(=O)c1cc(F)cc(C(F)(F)F)c1,RT-V106A Y181C,β-galactosidase,HeLa + HELA CD4+,HXB2,0.011–0.1 µM
CC(C)C1=C2[C@H]3CC[C@@H]4[C@@]5(C)CC[C@H](OC(=O)[C@H]6C[C@@H](C(=O)O)C6(C)C)C(C)(C)[C@@H]5CC[C@@]4(C)[C@]3(C)CC[C@@]2([C@@H](O)CNC(=O)C(C)(NC(=O)c2ccc(Cl)cc2)C(C)O)CC1=O,,p24 / ELISA,MT-2,92HT599,<1 µM
CN1c2ccccc2C2C1C=C(C#N)C(=O)N2c1ccc([N+](=O)[O-])cc1,,GFP / fluorescence,HeLa,1617-1,0.7 µM

The last 3 rows once more:

compound | changes | read by | cell line | strain or isolate | value
Cc1cc(S(N)(=O)=O)ccc1NC(=O)COc1ccc(Cl)cc1C(=O)c1cc(F)cc(C(F)(F)F)c1 | RT-V106A Y181C | β-galactosidase | HeLa + HELA CD4+ | HXB2 | 0.011–0.1 µM
CC(C)C1=C2[C@H]3CC[C@@H]4[C@@]5(C)CC[C@H](OC(=O)[C@H]6C[C@@H](C(=O)O)C6(C)C)C(C)(C)[C@@H]5CC[C@@]4(C)[C@]3(C)CC[C@@]2([C@@H](O)CNC(=O)C(C)(NC(=O)c2ccc(Cl)cc2)C(C)O)CC1=O |  | p24 / ELISA | MT-2 | 92HT599 | <1 µM
CN1c2ccccc2C2C1C=C(C#N)C(=O)N2c1ccc([N+](=O)[O-])cc1 |  | GFP / fluorescence | HeLa | 1617-1 | 0.7 µM